Reference: ChEMBL document CHEMBL4673334, “In Vivo Biological Evaluation of a Synthetic Royleanone Derivative as a Promising Fast-Acting Trypanocidal Agent by Inducing Mitochondrial-Dependent Necrosis” (J Nat Prod, 2020)

Test system: Trypanosoma cruzi
Experiment: Inhibition of mitochondrial membrane potential in Trypanosoma cruzi MHOM/Pe/2011/Arequipa(DTU V) epimastigote form at IC25 concentration after 72 hrs by Rho (FITC-A) staining based flow cytometric analysis
Type: functional

[C-]#N.[K+]
inhibition: 95.1%
